# Data source: PubChem BioAssay AID624099 (ICCB-Longwood, 2012)
# Test: 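Knock-downs relieving repression by E2 of an HPV18 LCR luciferase reporter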 (primary screen)
# Cells: human C33A cervical carcinoma cells (HPV-negative) stably expressing BPV1 E2 and an HPV18 LCR luciferase reporter
# Knock-down reagent: siRNA pool against human genes, 40 nM
# Duration: 72 h
# Detection: 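HPV18 LCR reporter light per well, converted to plate-wise z-scores that exclude control wells, and averaged over triplicate plates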
# Direction: mean z-score and z-score: higher = stronger reporter signal, weaker E2 silencing
# Rule for the call: 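Hit if mean z-score reaches 2 and two or more of three replicate z-scores also reach 2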
# In all, the deposit lists about 21,000 reagents; this is a part drawn at random. 497 of them (2.4%) were called active. 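Higher z means weaker E2 silencing; only reporter increases were scored, and knock-downs that hurt cell survival may mask genuine repressor factors.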
gene symbol,mean z-score,"z-score, replicate A","z-score, replicate B","z-score, replicate C",Outcome
"BPNT1 (3'(2'), 5'-bisphosphate nucleotidase 1)",1.16,1.21,1.05,1.21,inactive
NANS (N-acetylneuraminate synthase),0.6,0.65,0.78,0.38,inactive
PCYOX1 (prenylcysteine oxidase 1),-1.09,-0.59,-1.18,-1.5,inactive
CYP26B1 (cytochrome P450 family 26 subfamily B member 1),0.22,0.32,0.12,0.22,inactive
THOC3 (THO complex subunit 3),-0.41,-0.61,-0.18,-0.45,inactive
TIMP1 (TIMP metallopeptidase inhibitor 1),-0.29,-0.3,-0.26,-0.32,inactive
SPIDR (scaffold protein involved in DNA repair),-0.52,-0.94,-0.38,-0.23,inactive
KCNAB2,-0.24,-0.17,-0.05,-0.5,inactive
GINM1 (glycosylated integral membrane protein 1),0.27,0.57,0.22,0.02,inactive
FAM219A (family with sequence similarity 219 member A),1.35,1.32,1.26,1.47,inactive
TLR6 (toll like receptor 6),0.88,0.92,0.9,0.83,inactive
KPNA1 (karyopherin subunit alpha 1),0.11,-0.08,0.09,0.31,inactive
NPHP3 (nephrocystin 3),-0.08,-0.27,0.09,-0.07,inactive
PABPC1L2A (poly(A) binding protein cytoplasmic 1 like 2A),-0.44,-0.3,-0.68,-0.36,inactive
PINK1 (PTEN induced kinase 1),-0.56,-0.73,-0.65,-0.3,inactive
CDH12 (cadherin 12),-0.68,-0.85,-0.58,-0.6,inactive
KRT18 (keratin 18),-0.82,-0.85,-0.67,-0.94,inactive
HLX (H2.0 like homeobox),0.85,0.73,0.85,0.97,inactive
RBL1 (RB transcriptional corepressor like 1),-0.94,-1.01,-0.9,-0.92,inactive
PRRT3 (proline rich transmembrane protein 3),-0.77,-0.95,-0.48,-0.86,inactive
"ASAP2 (ArfGAP with SH3 domain, ankyrin repeat and PH domain 2)",-0.19,-0.21,-0.01,-0.35,inactive
PTGES2 (prostaglandin E synthase 2),-0.82,-0.58,-0.92,-0.98,inactive
TANGO2 (transport and golgi organization 2 homolog),-1.45,-1.57,-1,-1.79,inactive
RPA2 (replication protein A2),-0.11,-0.05,-0.17,-0.1,inactive
VRK2 (VRK serine/threonine kinase 2),1.27,1.11,1.45,1.24,inactive
SLC2A9,-1.3,-1.23,-1.42,-1.25,inactive
WDFY2 (WD repeat and FYVE domain containing 2),0.39,0.37,0.2,0.59,inactive
CLGN (calmegin),-0.87,-1.39,-0.49,-0.73,inactive
GPRC5D (G protein-coupled receptor class C group 5 member D),-1.27,-1.23,-1.23,-1.33,inactive
SPAG7 (sperm associated antigen 7),0.41,0.31,0.31,0.61,inactive
PPIAP74 (peptidylprolyl isomerase A pseudogene 74),-0.86,-1.38,-0.76,-0.44,inactive
LOC389441 (retired record),-0.04,-0.14,-0.1,0.11,inactive
EEF1D (eukaryotic translation elongation factor 1 delta),-1.53,-1.38,-1.43,-1.78,inactive
RNASE4 (ribonuclease A family member 4),-0.34,-0.66,-0.19,-0.17,inactive
LOC401314 (retired record),0.69,0.33,0.73,1.02,inactive
TMEM185A (transmembrane protein 185A),0.38,0.3,0.38,0.46,inactive
ARHGEF10 (Rho guanine nucleotide exchange factor 10),1.34,1.27,1.22,1.53,inactive
ZNF135 (zinc finger protein 135),-0.16,-0.08,-0.18,-0.22,inactive
AKAP4 (A-kinase anchoring protein 4),-0.19,-0.15,-0.24,-0.18,inactive
VPS18 (VPS18 core subunit of CORVET and HOPS complexes),0.04,-0.32,0.22,0.22,inactive
MEOX1 (mesenchyme homeobox 1),0.49,0.93,0.48,0.07,inactive
ARHGAP8 (Rho GTPase activating protein 8),-0.04,-0.07,-0.14,0.08,inactive
STON1 (stonin 1),2.3,2.79,2.15,1.94,active
TBL1X (transducin beta like 1 X-linked),-0.25,0.1,-0.27,-0.58,inactive
LOC388688 (retired record),-0.21,-0.24,-0.11,-0.29,inactive
REM2 (RRAD and GEM like GTPase 2),-0.92,-0.96,-0.94,-0.85,inactive
DALRD3 (DALR anticodon binding domain containing 3),-0.9,-1.36,-0.98,-0.38,inactive
SLC25A19,0.24,0.49,0.03,0.21,inactive
CNIH1 (cornichon family member 1),-0.89,-1.06,-0.62,-1,inactive
OSBPL10 (oxysterol binding protein like 10),-0.14,0.05,0.01,-0.49,inactive
MYOCD (myocardin),-0.24,-0.19,-0.46,-0.06,inactive
KICS2 (KICSTOR subunit 2),1.89,1.86,2.03,1.8,inactive
SIN3B (SIN3 transcription regulator family member B),1.24,1.3,1.31,1.09,inactive
OR10G2 (olfactory receptor family 10 subfamily G member 2),-0.06,-0.39,0.16,0.03,inactive
LOC392702 (retired record),-0.47,-0.28,-0.56,-0.56,inactive
TST (thiosulfate sulfurtransferase),-1.14,-0.62,-1.58,-1.22,inactive
TRMT6 (tRNA methyltransferase 6 non-catalytic subunit),1.1,0.99,1.08,1.24,inactive
HOXA6 (homeobox A6),1.23,1.17,1.16,1.35,inactive
YDJC (YdjC chitooligosaccharide deacetylase homolog),1,1.13,0.63,1.24,inactive
RIC3 (RIC3 acetylcholine receptor chaperone),-0.38,-0.43,-0.68,-0.03,inactive
ULK3 (unc-51 like kinase 3),-0.62,-0.89,-0.59,-0.38,inactive
C9orf85 (chromosome 9 open reading frame 85),0.19,0.11,0.6,-0.12,inactive
CSF2RA (colony stimulating factor 2 receptor subunit alpha),-0.73,-0.78,-0.79,-0.63,inactive
SPPL2B (signal peptide peptidase like 2B),-0.57,-0.61,-0.65,-0.44,inactive
SDSL (serine dehydratase like),-2.13,-2.04,-1.88,-2.46,inactive
"RABEP2 (rabaptin, RAB GTPase binding effector protein 2)",0.04,0.13,-0.32,0.31,inactive
P2RX7 (purinergic receptor P2X 7),1.87,2,1.83,1.79,inactive
LOC400937 (retired record),0.93,0.83,1.34,0.62,inactive
SPX (spexin hormone),0.15,-0.06,0.35,0.15,inactive
FBXO2 (F-box protein 2),-0.22,-0.06,-0.27,-0.33,inactive
AK1 (adenylate kinase 1),2.03,2.21,2.16,1.72,active
PARD6B (par-6 family cell polarity regulator beta),0.88,0.43,0.96,1.27,inactive
MFAP5 (microfibril associated protein 5),0.98,1.08,1.12,0.74,inactive
